# PMC12621019, “Restructuring Antiviral Quinazolinone Frameworks to Derive and Optimize Inhibitors of Chikungunya Virus” (ACS Medicinal Chemistry Letters, 2025)
# Like-named read-outs stand apart in the source and are kept apart here.
# Experiments:
# [1] = tested on: chikungunya virus strain 181/25
# [2] = tested on: chikungunya virus strain 181/25; assay: microbe, parasite or virus in culture; conditions: Vero C1008, read-out: EC50 (capsid protein, high-content confocal imaging)
compound,measurement,setting,value
COc1c(F)cc(-n2c([C@H]3CCCCN3)nc3cc(N4CCN(C(C)C)CC4)c(Cl)cc3c2=O)cc1F [(R)-1h],effect on CHIKV induced cell death (confocal microscopy),[1],dose-dependent protective effect
same,EC50,"[1]; read-out: EC50 (capsid protein, high-content confocal imaging)",6.02 µM
same,EC50,[2],6 µM
